Experimental data from PMC8630636, “Fis Connects Two Sensory Pathways, Quorum Sensing and Surface Sensing, to Control Motility in Vibrio parahaemolyticus”.
Protein sequences can lack the tags named with them. The exact form of at least one protein or probe is not confirmed. At least one verdict was read from the data and is not stated in words by the source.

Biological target: T1, Fis (Vibrio parahaemolyticus RIMD2210633) (UniProt P64128)
T1 sequence (looked up): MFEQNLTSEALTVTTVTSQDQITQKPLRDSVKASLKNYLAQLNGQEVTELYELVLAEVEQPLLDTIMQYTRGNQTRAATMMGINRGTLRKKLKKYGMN
Experiment: EMSA
Conditions: 10 mM Tris, 150 mM KCl, 0.1 mM DTT, 0.1 mM EDTA, 5% PEG, pH 7.4, 20 min at room temperature, 30 ng DNA, 6% native gel in 1x TAE at 4 C, recombinant protein, residues 1-98

Sequence | binding result | other results
TTTGTGCCCCTAGTTATTGGAATTTAAGATGTACTGAAACATTAATTCGCATTATAAAATAAGTAATGGCGAACTGCTATTGTTTTAGGTCAAAAATTTGCTTTTTCTTTAACCAATGTTGCCTTTTGCAACCAGTTTTACGTTTGCTTTACGC (double strand) [PnagB probe 1] | – | binding result (probe letters rebuilt from the primers and the genome): binds
CTACTTTAGATCTCGCTATATATGGTCTAAAAATTAACTGTTCATTTAAA (double strand) [PscrA_WT] | binds | –
CCTTCTTAAGCCGAGGGTCACCTAGCCAACTGACGTTGTTAGTGAA (double strand) [Qrr3coding_WT] | binds | –
GATAACATGAATAAGATAAACCCATATTTTAAAGTGAATTCAAAAATTGA (double strand) [PgntK_WT (probe 2)] | – | binding result (non-specific binding not ruled out): binds
